{
  "source": "paper PMC5414288",
  "about": "“^99mTc-radiolabeled GE11-modified peptide for ovarian tumor targeting” (DARU Journal of Pharmaceutical Sciences, 2017)",
  "system": "SKOV3 cells",
  "test": "Cellular specific binding",
  "assay_type": "cell-based, human",
  "details": "500-fold molar excess of antibody",
  "data": [
    {"substance": "trastuzumab: HER2-specific antibody", "values": [
      {"measurement": "Specific binding of ^99mTc-tricine-HYNIC-SSS-GE11 in SKOV3 cells after pre-incubation with antibody", "value": "decreased significantly"}
    ]}
  ]
}
